A mixed list of measured activities; the numbers were collected in NIAID ChemDB.

All rows: cytotoxicity tests; cell line: MT-4; endpoint: CC50

An empty or dashed field is not shown.

compound | read by | result
Nc1ccn([C@H]2CC[C@@H](CO)O2)c(=O)n1 | MTT | 2200 µM
Cc1c(Sc2ccccc2)n(COCCN(c2ccccc2)c2ccccc2)c(=O)[nH]c1=O | - | >1 µM
CCOC(=O)c1[nH]c2ccc(Cl)cc2c1S(=O)(=O)C1CCCCC1 | microscopy | >10 µM
CCc1c(Cc2cc(OC)cc(OC)c2)[nH]c(=O)[nH]c1=O | MTT | >100 µM
O=C1c2ccccc2C(=O)c2c1cc(S(=O)(=O)O)c(O)c2O | - | 120 µg/mL
CC(=O)Oc1cc(C(=O)Nc2ccc(S(=O)(=O)Nc3ccccc3Br)cc2)cc(OC(C)=O)c1OC(C)=O | - | >25 µM
COc1cc(Cc2[nH]c(=S)[nH]c(=O)c2C(C)C)cc(OC)c1 | MTT | >100 µM
CCCCCc1nc2n(n1)C(c1ccc(OC)cc1)CC(=O)N2 | visual reading | >100 µg/mL
O=C(CO)N1C[C@@H](O)[C@@H](Cc2ccccc2)N(Cc2ccc(O)cc2)C(=O)N1Cc1ccc(O)cc1 | - | 71.6 µM
CC[C@H](CC[C@](C)(O)[C@H]1CC[C@H]2[C@@H]3[C@H](O)C=C4C[C@@H](O)CC[C@]4(C)[C@H]3CC[C@@]21C)C(C)C | MTT | 25.8 µM
Nc1nc2c(ncn2CCC(CO)CO)c(=O)[nH]1 | MTT | >493 µM
Cc1c(Sc2ccccc2)n(COCCNC(=O)CCCl)c(=O)[nH]c1=O | - | >1 µM
Cc1ccc(C(C)C)c2oc(=O)c(C(=O)/C=C/c3cccc([N+](=O)[O-])c3)c(O)c12 | - | 10.9 µg/mL
O=C1CC(c2ccc([N+](=O)[O-])cc2)n2nc(-c3ccncc3)nc2N1 | visual reading | >100 µg/mL
COC(=O)N[C@H](C(=O)NN(CCC[C@@]1(Cc2ccccc2)C(=O)N(C2c3ccccc3C[C@H]2O)C[C@H]1O)Cc1ccc(Br)cc1)C(C)(C)C | XTT | 31 µM
CCOCn1c(Cc2cc(OC)cc(OC)c2)c(CC)c(=O)[nH]c1=O | MTT | >100 µM
Nc1ncnc2c1ncn2[C@H]1C[C@@H](OCP(=O)(O)O)CO1 | MTT / absorbance | ≥315 µM
CC(C)[C@H](C)CC[C@](C)(O)[C@H]1C(=O)C[C@H]2[C@@H]3C(=O)C=C4C[C@@H](O)CC[C@]4(C)[C@H]3CC[C@@]21C | MTT | 4.95 µM
CCOC(=O)c1[nH]c2ccc(Cl)cc2c1S(=O)(=O)CC1CC1 | microscopy | >10 µM
Cc1cnc(Nc2ccc(C#N)cc2)nc1C(C)(O)c1ccc(F)cc1 | MTT | 38.2 µM
CCc1c(Cc2cc(C)cc(C)c2)n(COCCOc2ccccc2)c(=O)[nH]c1=O | MTT | 41 µM
COc1ccc(/C=C/C(=O)c2c(O)c3cc(Cl)c(C)cc3oc2=O)cc1OC | - | 71.4 µg/mL
CCCc1c(Sc2ccccc2)n(COCCO)c(=O)[nH]c1=O | - | 200 µM
C[C@H](Cn1cnc2c(N)ncnc21)OCP(=O)(O)O | tetrazolium | >250 µM
Cc1c(Sc2ccccc2)n(COCc2ccccc2)c(=O)[nH]c1=O | - | 63 µM
CCCOC(=O)[C@H](Cc1ccccc1)NP(=O)(CO[C@H]1CO[C@@H](n2cnc3c(=O)[nH]cnc32)C1)N[C@@H](Cc1ccccc1)C(=O)OCCC | MTT / absorbance | 95.1 µM
Nc1ncnc2c1ncn2[C@H]1CC[C@@H](CO)O1 | - | 890 µM
Nc1nc(=O)n(CCN2C(=O)CSC2COc2ccccc2)cc1F | - | 100 µM
Cc1cn([C@@H]2C[C@H](O)[C@@H](CO)S2)c(=O)[nH]c1=O | - | >100 µM
COc1ccc(/C=C/C(=O)c2c(O)c3c(C)ccc(C(C)C)c3oc2=O)cc1 | - | >125 µg/mL
COc1ccc(C2CC(=O)Nc3nc(-c4ccc5ccccc5c4)nn32)cc1 | visual reading | >100 µg/mL
Cc1cn([C@H]2C[C@@H](OCP(=O)(O)O)CO2)c(=O)[nH]c1=O | MTT / absorbance | 297 µM
COc1cc(Cc2[nH]c(=O)[nH]c(=O)c2C(C)C)cc(OC)c1 | MTT | >100 µM
Nc1ncnc2c1ncn2[C@H]1C=C[C@@H](CO)O1 | - | 19 µM
CCCN1C(=O)N(CCC)N(C(=O)C(C)C)C[C@@H](O)[C@H]1Cc1ccccc1 | - | >100 µM
COC(=O)N[C@H](C(=O)NN(CC[C@@]1(Cc2ccccc2)C(=O)N(C2c3ccccc3C[C@H]2O)C[C@H]1O)Cc1ccc(Br)cc1)C(C)(C)C | XTT | 31 µM
Nc1nc2c(ncn2[C@@H]2C=C[C@H](COP(=O)(O)OP(=O)(O)OP(=O)(O)O)C2)c(=O)[nH]1 | - | >200 µM
CCCCOP(=O)(CN[C@@H](Cc1ccccc1)[C@H](O)CN(CC(C)C)S(=O)(=O)c1ccc(OC)cc1)OCCCC | MTT | 13.08 µg/mL
C=CCNc1c(N=Nc2ccc(-c3ccc(F)cc3)cc2)c(N)nc(=O)n1C | MTT | 10.42 µM
NC(=O)c1[nH]c2ccc(Cl)cc2c1S(=O)(=O)CCC1CC1 | microscopy | >10 µM
COc1ccc(-c2ccc(N=Nc3c(N)nc(=O)n(C)c3N3CCCCC3)cc2)cc1OC | MTT | 18.15 µM
CCc1c(Sc2ccccc2)n(C/C=C/c2ccc([N+](=O)[O-])s2)c(=O)[nH]c1=O | - | >1 µM
O=C(/C=C/c1ccc(O)c(O)c1)Nc1ccc(S(=O)(=O)Nc2ccccc2Br)cc1 | - | 49 µM
Cc1cn([C@H]2C[C@H](N=[N+]=[N-])[C@@H](CO)O2)c(=O)[nH]c1=O | - | 11.5 µg/mL
Cn1c(N2CCNCC2)c(N=Nc2ccc(Cl)cc2)c(N)nc1=O | MTT | 3.03 µM
O=S(=O)(O)O.O=S(=O)(O)O.O=S(=O)(O)O.O=S(=O)(O)O.O=S(=O)(O)O.O=S(=O)(O)O.O=S(=O)(O)O.O=S(=O)(O)O.O=S(=O)(O)O.O=S(=O)(O)O.O=S(=O)(O)O.O=S(=O)(O)O.OC[C@H]1O[C@@H]2O[C@H]3[C@H](O)[C@@H](O)[C@@H](O[C@H]4[C@H](O)[C@@H](O)[C@@H](O[C@H]5[C@H](O)[C@@H](O)[C@@H](O[C@H]6[C@H](O)[C@@H](O)[C@@H](O[C@H]7[C@H](O)[C@@H](O)[C@@H](O[C@H]1[C@H](O)[C@H]2O)O[C@@H]7CO)O[C@@H]6CO)O[C@@H]5CO)O[C@@H]4CO)O[C@@H]3CO | - | >2500 µg/mL
Cc1ccc(C(C)C)c2oc(=O)c(C(=O)/C=C/c3ccccc3)c(O)c12 | - | 12.75 µg/mL
O=c1[nH]cnc2c1ncn2[C@H]1C[C@@H](OCP(=O)(O)O)CO1 | MTT / absorbance | >395 µM
COc1cc(/C=C/C(=O)OCCCc2ccc(OC(COC(=O)/C=C/c3ccc(O)c(OC)c3)[C@@H](OC)c3ccc(O)c(OC)c3)c(OC)c2)ccc1O | luminescence | >10 µM
CCOP(=O)(CN[C@@H](Cc1ccccc1)[C@H](O)CN(CC(C)C)S(=O)(=O)c1ccc(OC)cc1)OCC | MTT | 64.5 µg/mL
Nc1ncnc2c1ncn2[C@H]1C=C[C@@H](OCP(=O)(O)O)O1 | - | >600 µM
CCCCCc1nc2n(n1)C(c1ccc([N+](=O)[O-])cc1)CC(=O)N2 | visual reading | >100 µg/mL
CCOC(=O)c1[nH]c2ccc(Cl)cc2c1SC1CC1 | microscopy | >10 µM
Nc1nc(NC2CC2)c2ncn([C@H]3C[C@@H](OCP(=O)(O)O)CO3)c2n1 | MTT / absorbance | >338 µM
COC(=O)N[C@H](C(=O)NN(CC[C@@]1(Cc2ccccc2)C(=O)N(C2c3ccccc3C[C@H]2O)C[C@H]1O)Cc1ccc(-c2ccncc2)cc1)C(C)(C)C | XTT | 31 µM
Cc1cc2oc(=O)c(C(=O)/C=C/c3ccc(N(C)C)cc3)c(O)c2cc1Cl | - | >125 µg/mL
CCOC(=O)c1[nH]c2ccc(Cl)cc2c1SCC(F)(F)C(F)(F)F | microscopy | >10 µM
O=C1CC(c2ccccc2)n2nc(C3CCCCC3)nc2N1 | visual reading | ≥100 µg/mL
Cc1ccc(C(C)C)c2oc(=O)c(C(=O)/C=C/c3ccc(O)cc3)c(O)c12 | - | 3.85 µg/mL
CC(=O)Oc1ccc(/C=C/C(=O)Nc2ccc(S(=O)(=O)Nc3cccc(Cl)c3F)cc2)cc1OC(C)=O | - | >25 µM
CC(=O)N1C[C@@H](O)[C@@H](Cc2ccccc2)N(Cc2ccc(O)cc2)C(=O)N1Cc1ccc(O)cc1 | - | 100 µM
COc1ccc(-c2ccc(N=Nc3c(N)nc(=O)n(C)c3N(C)C)cc2)cc1OC | MTT | 10.42 µM
Cc1cn([C@H]2C[C@H](N=[N+]=[N-])[C@@H](CO)O2)c(=O)[nH]c1=O | MTT | 50 µg/mL
Cc1[nH]c2ccccc2c1CC(=O)N[C@@H](Cc1ccccc1)C(=O)N(C)c1ccccc1 | - | >11.56 µM
Cc1cn([C@H]2C[C@H](N=[N+]=[N-])[C@@H](CO)S2)c(=O)[nH]c1=O | - | >100 µM
CC(=O)Oc1ccc(/C=C/C(=O)Nc2ccc(S(=O)(=O)Nc3ccc(Cl)c(Cl)c3)cc2)cc1OC(C)=O | - | 20 µM
COc1cc(Cc2c(C(C)C)c(=O)[nH]c(=O)n2COCCOc2ccccc2)cc(OC)c1 | MTT | 33 µM
Cc1cn([C@H]2C[C@H](O)[C@@H](CO)S2)c(=O)[nH]c1=O | - | 1 µM

A second listing of 3 rows from above:

compound	read by	result
CC(C)[C@H](C)CC[C@](C)(O)[C@H]1C(=O)C[C@H]2[C@@H]3C(=O)C=C4C[C@@H](O)CC[C@]4(C)[C@H]3CC[C@@]21C	MTT	4.95 µM
C=CCNc1c(N=Nc2ccc(-c3ccc(F)cc3)cc2)c(N)nc(=O)n1C	MTT	10.42 µM
COC(=O)N[C@H](C(=O)NN(CC[C@@]1(Cc2ccccc2)C(=O)N(C2c3ccccc3C[C@H]2O)C[C@H]1O)Cc1ccc(-c2ccncc2)cc1)C(C)(C)C	XTT	31 µM

CCn: concentration that lowers growth or viability of the cells by n%. Lines come from different laboratories, so protocols vary.